Our source for the percent of cellular molecules engaged with PrP* on the surface and percent of total CNX recovered with surface GFP-PrP* values is article PMC6541436, “Misfolded GPI-anchored proteins are escorted through the secretory pathway by ER-derived factors” (2019).

This assay addresses GFP-tagged PrP* (C179A mutant of hamster PrP) (hamster) (UniProt Q60506). The assay is described as follows: co-IP.

Substance “Calnexin (from UniProt P27824 21-592) (natural protein)” yielded a percent of cellular molecules engaged with PrP* on the surface of 0.5% and a percent of total CNX recovered with surface GFP-PrP* of 0.1%.
